Consider four compounds from PMC11050134, “A Complex-Type N-Glycan-Specific Lectin Isolated from Green Alga Halimeda borneensis Exhibits Potent Anti-Influenza Virus Activity” (International Journal of Molecular Sciences, 2024).

This data set deals with T1, HBL40.
T1 construct: gene HBL40-1; native, purified from alga; about 40 kDa dimer of 20 kDa subunits (non-reducing 40, reducing 20 kDa)
Description: centrifugal ultrafiltration-HPLC, fluorescence detection. The data set is classed as binding, Halimeda borneensis. As to conditions: 500 nM lectin (90 µL) + 300 nM PA-oligosaccharide (10 µL), 50 mM Tris-HCl pH 7.0, room temperature, 60 min; labelled compound.
On to `CC(=O)N[C@H]1[C@H](O[C@@H]([C@H](O)[C@H](CNc2ccccn2)NC(C)=O)[C@H](O)CO)O[C@H](CO)[C@@H](O[C@@H]2O[C@H](CO[C@H]3O[C@H](CO)[C@@H](O)[C@H](O)[C@@H]3O[C@@H]3O[C@H](CO)[C@@H](O[C@@H]4O[C@H](CO)[C@H](O)[C@H](O)[C@H]4O)[C@H](O)[C@H]3NC(C)=O)[C@@H](O)[C@H](O[C@H]3O[C@H](CO)[C@@H](O)[C@H](O)[C@@H]3O[C@@H]3O[C@H](CO)[C@@H](O[C@@H]4O[C@H](CO)[C@H](O)[C@H](O)[C@H]4O)[C@H](O)[C@H]3NC(C)=O)[C@@H]2O)[C@@H]1O` [compound 2, asialo-biantennae], for which the “binding activity (%)” value is recorded as 100%.

As to sialo-biantennae [compound 1], the “binding activity (%)” value was found to be 78%.

`CC(=O)N[C@H]1[C@H](O[C@@H]([C@H](O)[C@H](CNc2ccccn2)NC(C)=O)[C@H](O)CO)O[C@H](CO)[C@@H](O[C@@H]2O[C@H](CO[C@H]3O[C@H](CO)[C@@H](O)[C@H](O)[C@@H]3O[C@@H]3O[C@H](CO)[C@@H](O)[C@H](O)[C@H]3NC(C)=O)[C@@H](O)[C@H](O[C@H]3O[C@H](CO)[C@@H](O)[C@H](O)[C@@H]3O[C@@H]3O[C@H](CO)[C@@H](O)[C@H](O)[C@H]3NC(C)=O)[C@@H]2O)[C@@H]1O` [compound 4, agalacto-biantennae]: the “binding activity (%)” value amounted to 80%.

Regarding agalacto-triantennae [compound 8], the “binding activity (%)” value is on record as 56%.
